The test deals with hCL1 (Homo sapiens).

The values that follow come from patent US20090104178A1.

By Kd is commonly meant the free concentration of one partner at which half of the binding sites on the other are occupied at equilibrium, for simple one-to-one binding. A higher Kd goes with lower affinity. “Purified recombinant full-length VaV CrmB protein” yielded a Kd of 28.8 nM.
